# Literature values in US20220249978A1, “NOVEL SOLVENT FOR EXTRACTING, SOLUBILISING AND/OR FORMULATING VOLATILE AND NON-VOLATILE COMPOUNDS OF INTEREST IN ANIMAL NUTRITION AND HEALTH, PREPARATION METHOD AND USES THEREOF” (ID4TECH, priority 2019, published 2022).
# System: Staphylococcus aureus
# Details: protein A, α-hemolysin, β-lactamase, TSST-1
smiles,measurement,value
CCCCCCCCCCCC(=O)OCC(O)CO (stereo not shown) [glycerol monolaurate],production of exoenzymes and virulence factors,blocks the production
